Anti-infective test results gathered from many reports (values: NIAID ChemDB through PubChem).

Common to all: whole-cell or culture tests; organism: Hepatitis B virus; method: PCR; read-out: EC50

Conditions beyond the fields shown may differ between rows.

compound | cells | result
CCOC(=O)C1=C(CN2CC(F)(F)[C@H]3[C@@H]2CCN3C[C@@H](O)C(C)(C)C(=O)O)NC(c2nccs2)=N[C@@H]1c1cccc(F)c1F | HepG2.2.15 | 0.11 µM
O=C(c1ccc(Br)c(Cl)c1)N1CCn2c(c3n(c2=O)CCCN(CC2CC2)C3=O)C1 | HepG2.117 | >5 µM
Cn1nc2cc(NS(=O)(=O)N3CC[C@H](O)C3)ccc2c1C(=O)Nc1ccc(F)c(Cl)c1 | HepAD38 | 100–1000 µM
CCOC(=O)C1=C(CN2CC(F)(F)[C@H]3[C@@H]2CCN3C[C@](C)(O)C(=O)O)NC(c2nc(C)cs2)=N[C@H]1c1cccc(F)c1C | HepG2.2.15 | 0.004 µM
COc1ccc(-n2c(C(=O)NCc3cccc4cccnc34)c3n(c2=O)CCN(C(=O)c2ccc(Br)c(Cl)c2)C3)cc1 | HepG2.117 | 0.1–0.5 µM
Cn1cc(S(=O)(=O)Nc2cc(F)c3c(C(=O)Nc4ccc(F)c(Cl)c4)n(C)nc3c2)cn1 | HepAD38 | 100–1000 µM
CNS(=O)(=O)N1CC[C@@H](NS(=O)(=O)c2c(F)c(C(=O)Nc3cc(F)c(F)c(F)c3)n3c2CCC3)C1 | HepAD38 cells | <0.1 µM
C[C@H](NS(=O)(=O)Nc1ccc2c(C(=O)Nc3ccc(F)c(Cl)c3)n(C)nc2c1)c1ccccc1 | HepAD38 | 100–1000 µM
C#CC1(NC(=O)C(=O)c2c(C)c(C(=O)Nc3ccnc(F)c3Br)n(C)c2C)CC(F)(F)C1 | HepG2.2.15 | 0.001–0.0099 µM
Cn1nc2cc(NS(=O)(=O)CC(=O)NC3CC3)ccc2c1C(=O)Nc1ccc(F)c(Cl)c1 | HepAD38 | >1000 µM
CCOC(=O)C1=C(CN2CC(F)(F)[C@@H]3[C@H]2CON3CC[C@@](C)(O)C(=O)O)NC(c2nccs2)=N[C@H]1c1ccc(F)c(F)c1Cl | HepG2.2.15 | 0.049 µM
O=C(NCc1ccccc1-n1cncn1)c1c2n(c(=O)n1-c1ccc(OC3CC3)cc1)CCN(C(=O)c1ccc(Br)c(Cl)c1)C2 | HepG2.117 | <0.1 µM
O=C(Nc1ccc(F)c(Cl)c1)c1c2ccc(NS(=O)(=O)C3CC3)cc2nn1CC1CC1 | HepAD38 | >1000 µM
CCCn1cc(S(=O)(=O)N[C@@H]2CCN(C(=O)C(=O)NC)C2)c(F)c1C(=O)Nc1ccc(F)c(F)c1 | HepAD38 cells | <0.1 µM
C[C@H](NC(=O)c1c2n(c(=O)n1-c1ccc(OCC(F)(F)F)cc1)CCN(C(=O)c1ccc(Br)c(Cl)c1)C2)c1ccc(OCC(N)=O)cc1F | HepG2.117 | 0.1–0.5 µM
Cc1c(C(=O)C(=O)NC(C)(C)c2ncc[nH]2)c(C)n(C)c1C(=O)Nc1ccc(F)c(C#N)c1 | HepG2.2.15 | 0.001–0.0099 µM
CCNC(=O)C(=O)N1CCC(NS(=O)(=O)c2c(C)c(C(=O)Nc3cc(F)c(F)c(F)c3)n3c2CCC3)CC1 | HepAD38 cells | 0.3–1 µM
Cc1oncc1S(=O)(=O)Nc1ccc2c(C(=O)Nc3ccc(F)c(Cl)c3)n(C)nc2c1 | HepAD38 | >1000 µM
CCOC(=O)C1=C(CN2CC(F)(F)[C@H]3[C@@H]2CCN3CC[C@](C)(O)C(=O)O)NC(c2nccs2)=N[C@H]1c1cccc(F)c1C | HepG2.2.15 | 0.0405 µM
Cn1nc2cc(NS(=O)(=O)c3cnn(-c4ccc(F)nc4)c3)ccc2c1C(=O)Nc1ccc(F)c(Cl)c1 | HepAD38 | 100–1000 µM
O=C1COc2cc(-n3c(C(=O)NCc4ccccc4)c4n(c3=O)CCN(C(=O)c3ccc(Br)c(Cl)c3)C4)ccc2N1 | HepG2.117 | 0.5–5 µM
Cc1c(C(=O)C(=O)NC2(C#C[C@@H](C)O)COC2)c(C)n(C)c1C(=O)Nc1ccc(F)c(C#N)c1 | HepG2.2.15 | 0.01–0.099 µM
CCOC(=O)C1=C(CN2CC(F)(F)[C@H]3[C@@H]2CCN3CC[C@@](C)(O)C(=O)O)NC(c2nccs2)=N[C@H]1c1ccc(F)c(F)c1C | HepG2.2.15 | 0.011 µM
Cn1cc(S(=O)(=O)N[C@@H]2CCN(S(=O)(=O)C3CCCC3)C2)c(F)c1C(=O)Nc1ccc(F)c(F)c1 | HepAD38 cells | 0.1–0.3 µM
CCOC(=O)C1=C(CN2CC(F)(F)[C@@H]3[C@H]2CON3CC[C@@](C)(O)C(=O)O)NC(c2nccs2)=N[C@H]1c1ccc(F)c(F)c1C | HepG2.2.15 | 0.054 µM
C#CCNC(=O)C(=O)c1c(C)c(C(=O)Nc2ccc(F)c(C(F)(F)F)c2)n(C)c1C | HepG2.2.15 | 0.001–0.00999 µM
COc1ccc([C@@H](C)NC(=O)c2c3n(c(=O)n2-c2ccc(OC(C)C)cc2)CCN(C(=O)c2ccc(Br)c(Cl)c2)C3)c(F)c1 | HepG2.117 | <0.1 µM
Cn1nc2cc(NS(=O)(=O)c3cnn(S(C)(=O)=O)c3)ccc2c1C(=O)Nc1ccc(F)c(Cl)c1 | HepAD38 | 100–1000 µM

4 of the rows above, restated:

compound	cells	result
CCOC(=O)C1=C(CN2CC(F)(F)[C@H]3[C@@H]2CCN3CC[C@](C)(O)C(=O)O)NC(c2nccs2)=N[C@H]1c1cccc(F)c1C	HepG2.2.15	0.0405 µM
C#CCNC(=O)C(=O)c1c(C)c(C(=O)Nc2ccc(F)c(C(F)(F)F)c2)n(C)c1C	HepG2.2.15	0.001–0.00999 µM
Cn1nc2cc(NS(=O)(=O)CC(=O)NC3CC3)ccc2c1C(=O)Nc1ccc(F)c(Cl)c1	HepAD38	>1000 µM
Cn1nc2cc(NS(=O)(=O)c3cnn(S(C)(=O)=O)c3)ccc2c1C(=O)Nc1ccc(F)c(Cl)c1	HepAD38	100–1000 µM

ECn is the concentration giving n% inhibition of infection, replication or growth. a–b is a range or a potency band.